Format in all cases: binding
Data set [1] is described as follows: Self-assembly / complex formation on carboxymethylcellulose (absorption, fluorescence). The note with it: for changes in absorption and fluorescence when CMC is added / increase in fluorescence upon addition of CMC: aqueous solution; for changes in absorption and fluorescence when CMC is added: near neutral pH; for change of fluorescence quantum efficiency of oligomer:CMC complex: CMC (DS=0.7) added to aqueous solution, oligomer ˜15 mM as printed; for increase in fluorescence upon addition of CMC: [N-OPE]=1.5×10^−5 M. From the text: N-OPE:CMC complexes can be formed by adding small aliquots of CMC to aqueous solutions containing the N-OPE compound. […] [N-OPE-1]=1.5×10^−5M. […] [N-OPE-2]=1.5×10^−5 and [CMC]=0-4.2×10^−5M. Both excitation and emission slits are 2.5 nm. Excitation wavelength for N-OPE-1 is 355 nm and for N-OPE-2 is 375 nm. For both N-OPEs there are several isosbestic points in the absorption spectra as the two bands in the absorption for water alone are replaced by a spectrum of the N-OPE:CMC having two bands at longer wavelength. For both N-OPEs the fluorescence also undergoes a red shift and increase in intensity as aliquots of CMC are added, finally leveling off at moderate concentrations (greater than 1 mM) of CMC. […] The spectral shifts seem reasonable for a linear dimer; we note that the absorption spectrum of N-OPE-1:CMC is slightly red-shifted compared to N-OPE-2 in water alone. Comparing the estimated length of the linear N-OPE “rigid rod” the “conjugation length” of a linear N-OPE-1 dimer should be slightly longer than that of N-OPE-2. The spectral shifts are also consistent with “planarization” of the chromophores for a monomer assembling on the scaffold.
The N-OPE-CMC complexes can also be generated by addition of small aliquots of the N-OPE to a fixed concentration of CMC. When this was done with N-OPE-1, the very lowest concentrations of N-OPE-1 produced absorption indicative of a mixture of monomer and complex; as the (N-OPE-1) increased the spectra indicated only the complex was being formed on the CMC until a limiting ratio of (N-OPE-1):(moles of CMC polymer repeat units) (CMCPRU)=18:50 is reached. […] Here again as additional N-OPE-2 is added only the monomer spectrum increases.
Binding constants (assuming that an N-OPE dimer is formed in each case) can be estimated from a determination of the individual absorbances of the two species following a treatment for a similar two-state system developed by Pasternack and co-workers. See, e.g., Pasternack, R. F.; Goldsmith, J. I.; Szep, S.; Gibbs, E. J. Biophys. J. 1998, 75, 1024-1031, which is incorporated by reference. […] [N-OPE-2]=1.5×10^−5 and [CMC]=0-4.4×10^−5 M. The induced CD observed for N-OPE-2 and CMA is strong and biphasic with a change in phase of the induced CD exactly corresponding to the maximum in the J-dimer absorption. […] See, e.g., Kim, O. K.; Je, J.; Jernigan, G.; Buckley, L.; Whitten, D. J. Am. Chem. Soc. 2006, 128, 510-516, which is incorporated by reference. A similar structure may thus be reasonable for the CMA:N-OPE-2 complex. For the N-OPE-2 complex with CMC, the induced CD spectrum is much weaker and contains two bands corresponding to different absorptions: the longer wavelength band (negative) overlaps the transition we attribute to a J-dimer of N-OPE-2 while the shorter wavelength band (positive) overlaps the monomer of N-OPE-2.
Self-assembly is not limited solely to the non-symmetrical N-OPE compounds. […] Similar spectral changes, but with less pronounced red shifts, are observed over the same concentration range for S-OPE-1 (H) and N-OPE-1. […] The changes that occur for S-OPE-1 (H), N-OPE-1 and S-OPE-1 (COOEt) (sharp, red shifted absorption spectra, isosbestic points maintained throughout the CMC addition and red-shifted fluorescence) are consistent with an extension of effective conjugation for the oligomers on the carboxylate decorated surface of the CMC.

The nature of data set [2]: Self-assembly / complex formation on carboxymethylamylose (absorption, fluorescence). As to conditions: aqueous solution.
In another data set the test system is DNA. The data set can be described thus: Circular dichroism of OPE bound to DNA. The note with it: ds or ss DNA. (In general: Circular dichroism is the unequal absorption of left and right circularly polarised light.)

In the case of `C[N+](C)(C)CCCOc1cc(C#Cc2ccc(C(=O)[O-])cc2)c(OCCC[N+](C)(C)C)cc1C#Cc1ccc(C(=O)[O-])cc1` [S-OPE-1 (COO—)], in data set [1], the “changes in absorption and fluorescence when CMC is added” value (shortened to “changes in absorption and fluorescence”) is recorded as “no changes observed”.

Take `C[N+](C)(C)CCCOc1cc(C#Cc2ccccc2)c(OCCC[N+](C)(C)C)cc1C#Cc1ccccc1.[Cl-].[Cl-]` [S-OPE-1 (H)]: in data set [1], the “change of fluorescence quantum efficiency of oligomer:CMC complex” value (“change … of oligomer:CMC complex” for short) is given as “very little change”; the “changes in absorption and fluorescence” value is on record as “striking changes”.

Take `CCOC(=O)c1ccc(C#Cc2cc(OCCC[N+](C)(C)C)c(C#Cc3ccc(C#Cc4cc(OCCC[N+](C)(C)C)c(C#Cc5ccccc5)cc4OCCC[N+](C)(C)C)cc3)cc2OCCC[N+](C)(C)C)cc1.[Cl-].[Cl-].[Cl-].[Cl-]` [N-OPE-2]: the “increase in fluorescence upon addition of CMC” value in data set [1] is reported as “at least 14 fold”. Also, in data set [2], the “fluorescence increase of CMA complex compared to water” value is “more than ten-fold”. The “CD signal when bound to DNA” value in the data set with DNA is given as “detectable CD signal”.

On to `CCOC(=O)c1ccc(C#Cc2cc(OCCC[N+](C)(C)C)c(C#Cc3ccc(C(=O)OCC)cc3)cc2OCCC[N+](C)(C)C)cc1.[Cl-].[Cl-]` [S-OPE-1 (COOEt)], for which, in data set [1], the “change … of oligomer:CMC complex” value is “more than 18 fold”; the “changes in absorption and fluorescence” value is on record as “striking changes”. In addition, the “CD signal when bound to DNA” value with DNA is listed as “detectable CD signal”.

For the compound `CCOC(=O)c1ccc(C#Cc2cc(OCCC[N+](C)(C)C)c(C#Cc3ccccc3)cc2OCCC[N+](C)(C)C)cc1.[Cl-].[Cl-]` [N-OPE-1], in data set [1], the “change … of oligomer:CMC complex” value was “strong increase”; the “increase in fluorescence upon addition of CMC” value is recorded as “at least three-fold”; the “changes in absorption and fluorescence” value is on record as “striking changes”. The “aggregate formation upon addition of CMA” value in data set [2] is listed as “does not generate a spectrally observable aggregate”.

These data come from patent publication US8753570B2, “Structure, synthesis, and applications for oligo phenylene ethynylenes” (STC.UNM, priority 2008, dated 2014).
